Compound potency records, mixed from different reports. Data source: NIAID ChemDB in PubChem.

Shared fields: tests in culture; species: Mycobacterium avium complex

Lines come from different laboratories, so protocols vary.

CC[C@H]1OC(=O)[C@H](C)[C@@H](O[C@H]2C[C@@](C)(OC)[C@@H](OC(C)=O)[C@H](C)O2)[C@H](C)[C@@H](O[C@@H]2O[C@H](C)C[C@H](N(C)C)[C@H]2OC(=O)NN(C)C)C(C)(O)C[C@@H](C)/C(=N\OCCCC2CCCCC2)[C@H](C)[C@@H](O)[C@]1(C)O ; strain or isolate: 20096 (clarithromycin-resistant) ; read-out: MIC ; value: 3.13 µg/mL
CC[C@H]1OC(=O)[C@H](C)[C@@H](OC2C[C@@](C)(OC)[C@@H](O)[C@H](C)O2)[C@H](C)[C@@H](O[C@@H]2O[C@H](C)C[C@H](N(C)C)[C@H]2O)C(C)(O)C[C@@H](C)/C(=N\OCCN(C)c2ccccc2)[C@H](C)[C@@H](O)[C@]1(C)O ; strain or isolate: 20039 ; read-out: MIC ; value: 1.56 µg/mL
CC[C@H]1OC(=O)[C@H](C)[C@@H](O[C@H]2C[C@@](C)(OC)[C@@H](O)[C@H](C)O2)[C@H](C)[C@@H](O[C@@H]2O[C@H](C)C[C@H](N(C)C)[C@H]2O)[C@](C)(OC)C[C@@H](C)C(=O)[C@H](C)[C@@H](O)[C@]1(C)O ; strain or isolate: 19 strains (HIV+) ; read-out: MIC50 ; value: 8 µg/mL
C[C@H]1NCc2cc(-c3ccc4c(=O)c(C(=O)O)cn(C5CC5)c4c3OC(F)F)ccc21 ; strain or isolate: 8 strains ; read-out: MIC90 ; value: 16 µg/mL
CO/C(=N\N=C\c1ccc(Cl)cc1Cl)c1ccncc1 ; strain or isolate: 12592 PI ; read-out: MIC ; value: >20 µg/mL
C[C@@H](O)[C@H]1C(=O)N2C(C(=O)O)=C(SCCN=CN)C[C@H]12 ; strain or isolate: CIPT 140310005 ; read-out: MIC ; value: 10 µg/mL
NC(=S)c1ccnc(SCc2ccccc2F)c1 ; strain or isolate: MY330/88 ; read-out: MIC ; value: 62 µM
O=C(O)c1ccccn1 ; strain or isolate: N-444 ; read-out: MIC ; value: 3000 µg/mL
CC1(C)S[C@@H]2[C@H](NC(=O)C(C(=O)O)c3ccccc3)C(=O)N2[C@H]1C(=O)O ; strain or isolate: CIPT 140310012 ; read-out: MIC ; value: 25 µg/mL
N#Cc1ccnc(SCc2ccccc2F)c1 ; strain or isolate: MY330/88 ; read-out: MIC ; value: 125 µM
CC[C@H]1OC(=O)[C@H](C)[C@@H](O[C@H]2C[C@@](C)(OC)[C@@H](OC(C)=O)[C@H](C)O2)[C@H](C)[C@@H](O[C@@H]2O[C@H](C)C[C@H](N(C)C)[C@H]2OC(=O)NNc2ccccc2)C(C)(O)C[C@@H](C)/C(=N\OCCCC2CCCCC2)[C@H](C)[C@@H](O)[C@]1(C)O ; strain or isolate: 20039 (clarithromycin-susceptible) ; read-out: MIC ; value: 0.78 µg/mL
CO/C(=N\N=C\c1cccc(Cl)c1)c1ccncc1 ; strain or isolate: 12592 PI ; read-out: MIC ; value: >10 µg/mL
CCCCN1CCN(c2cc(=O)c3nc4c(oc3c2)c2c(=O)c3c(O)c(C)c5c(c34)=C(O)[C@@](C)(O/C=C/[C@H](OC)[C@@H](C)[C@@H](OC(C)=O)[C@H](C)[C@H](O)[C@H](C)[C@@H](O)[C@@H](C)/C=C/C=C(/C)C(=O)N2)O5)CC1 ; strain or isolate: 31F093T ; read-out: MIC ; value: 0.07 µg/mL
CC1(C)S[C@@H]2[C@H](NC(=O)[C@H](C(=O)[O-])c3ccsc3)C(=O)N2[C@H]1C(=O)[O-].[Na+].[Na+] ; strain or isolate: CIPT 140310005 ; read-out: MIC ; value: 50 µg/mL
CC[C@H]1OC(=O)[C@H](C)[C@@H](OC2C[C@@](C)(OC)[C@@H](OC(=O)CCc3ccccc3)[C@H](C)O2)[C@H](C)[C@@H](O[C@@H]2O[C@H](C)C[C@H](N(C)C)[C@H]2O)C(C)(O)C[C@@H](C)/C(=N\OCCCOc2ccccc2)[C@H](C)[C@@H](O)[C@]1(C)O ; strain or isolate: 20039 (clarithromycin-susceptible) ; read-out: MIC ; value: 0.78 µg/mL
CCCCCCCCO[C@@H]1O[C@@H](C(CO[C@@H]2O[C@@H](C(O)CO)[C@H](O)[C@H]2O)OC)[C@H](OC)[C@H]1OC ; strain or isolate: NJ211 ; read-out: MIC ; value: >128 µg/mL
CCN(CC)CNC(=O)c1cnccn1 ; strain or isolate: 101 ; read-out: MIC ; value: 128 µg/mL
CC[C@H]1OC(=O)[C@H](C)[C@@H](OC2C[C@@](C)(OC)[C@@H](O)[C@H](C)O2)[C@H](C)[C@@H](O[C@@H]2O[C@H](C)C[C@H](N(C)C)[C@H]2O)C(C)(O)C[C@@H](C)/C(=N\OCCCC2CCCCC2)[C@H](C)[C@@H](O)[C@]1(C)O ; strain or isolate: 20039 ; read-out: MIC ; value: 3.13 µg/mL
COCCN(CCOC)c1cc(=O)c2nc3c(oc2c1)c1c(=O)c2c(O)c(C)c4c(c23)=C(O)[C@@](C)(O/C=C/[C@H](OC)[C@@H](C)[C@@H](OC(C)=O)[C@H](C)[C@H](O)[C@H](C)[C@@H](O)[C@@H](C)/C=C/C=C(/C)C(=O)N1)O4 ; strain or isolate: 31F093T ; read-out: MIC ; value: 0.6 µg/mL
CC[C@H]1OC(=O)[C@H](C)[C@@H](OC2C[C@@](C)(OC)[C@@H](O)[C@H](C)O2)[C@H](C)[C@@H](O[C@@H]2O[C@H](C)C[C@H](N(C)C)[C@H]2O)C(C)(O)C[C@@H](C)/C(=N\OCCC2CCCCC2)[C@H](C)[C@@H](O)[C@]1(C)O ; strain or isolate: 20096 ; read-out: MIC ; value: 50 µg/mL
C[C@@H]1CN(c2c(F)c(N)c3c(=O)c(C(=O)O)cn(C4CC4)c3c2F)C[C@H](C)N1 ; strain or isolate: Isolate 90-1295 ; read-out: MIC ; value: 1 µg/mL
CC[C@H]1OC(=O)[C@H](C)[C@@H](O[C@H]2C[C@@](C)(OC)[C@@H](O)[C@H](C)O2)[C@H](C)[C@@H](O[C@@H]2O[C@H](C)C[C@H](N(C)C)[C@H]2O)[C@](C)(O)C[C@@H](C)/C(=N\OC)[C@H](C)[C@@H](O)[C@]1(C)O ; strain or isolate: 20096 ; read-out: MIC ; value: >50 µg/mL
CCCCN(CCCC)CNC(=O)c1cnccn1 ; strain or isolate: ATCC49601 ; read-out: MIC ; value: >128 µg/mL
COc1ccc(/C(C)=N/NC(=O)c2ccncc2)cc1OC ; strain or isolate: 12592 PI ; read-out: MIC ; value: >20 µg/mL
NC(=S)c1ccnc(SCc2cccc(Br)c2)c1 ; strain or isolate: MY330/88 ; read-out: MIC ; value: 31 µM
CO/C(=N\N=C\c1ccccc1F)c1ccncc1 ; strain or isolate: 12592 PI ; read-out: MIC ; value: >1 µg/mL
COc1c(N2CCNC(C)C2)c(F)cc2c(=O)c(C(=O)O)cn(C3CC3)c12 ; strain or isolate: 26777 ; read-out: MIC ; value: >16 µg/mL
CC(=O)Nc1ccc(/C(C)=N\NC(N)=S)cc1 ; strain or isolate: 109 ; read-out: MIC ; value: 0.25 µg/mL
N#Cc1ccnc(SCc2c(F)cccc2[N+](=O)[O-])c1 ; strain or isolate: MY330/88 ; read-out: MIC ; value: >500 µM
CCCCN(CC)CNC(=O)c1cnccn1 ; strain or isolate: 101 ; read-out: MIC ; value: 128 µg/mL
Cc1ccc(CSc2cc(C(N)=S)ccn2)cc1 ; strain or isolate: MY330/88 ; read-out: MIC ; value: 31 µM
CC[C@H]1OC(=O)[C@H](C)[C@@H](OC2C[C@@](C)(OC)[C@@H](O)[C@H](C)O2)[C@H](C)[C@@H](O[C@@H]2O[C@H](C)C[C@H](N(C)C)[C@H]2O)C(C)(O)C[C@@H](C)/C(=N\OCCSc2ccccc2)[C@H](C)[C@@H](O)[C@]1(C)O ; strain or isolate: 20092 ; read-out: MIC ; value: 25 µg/mL
N#Cc1ccnc(SCc2cccc(Br)c2)c1 ; strain or isolate: MY330/88 ; read-out: MIC ; value: 125 µM
CO[C@H]1/C=C/O[C@@]2(C)Oc3c(C)c(O)c4c(O)c(c5c(c4c3C2=O)NC2(CCN(CC(C)C)CC2)N=5)=NC(=O)/C(C)=C\C=C\[C@H](C)[C@H](O)[C@@H](C)[C@@H](O)[C@@H](C)[C@H](OC(C)=O)[C@@H]1C ; strain or isolate: SK095 ; read-out: MIC ; value: 0.125 µg/mL
COc1c(N2CCNC(C)C2)c(F)cc2c(=O)c(C(=O)O)cn(C3CC3)c12 ; strain or isolate: 18 strains ; read-out: MIC50 ; value: 1.56 µg/mL
CO[C@H]1/C=C/O[C@@]2(C)Oc3c(C)c(O)c4c(O)c(c5c(c4c3C2=O)NC2(CCN(CC(C)C)CC2)N=5)=NC(=O)/C(C)=C\C=C\[C@H](C)[C@H](O)[C@@H](C)[C@@H](O)[C@@H](C)[C@H](OC(C)=O)[C@@H]1C ; strain or isolate: 31F093T ; read-out: MIC ; value: 1.25 µg/mL
CC[C@H]1OC(=O)[C@H](C)[C@@H](OC2C[C@@](C)(OC)[C@@H](O)[C@H](C)O2)[C@H](C)[C@@H](O[C@@H]2O[C@H](C)C[C@H](N(C)C)[C@H]2O)C(C)(OC)C[C@@H](C)/C(=N\OCCCOc2ccccc2)[C@H](C)[C@@H](O)[C@]1(C)O ; strain or isolate: 20092 (clarithromycin-resistant) ; read-out: MIC ; value: 12.5 µg/mL
NNC(=O)c1ccncc1 ; strain or isolate: 13542 ; read-out: MIC ; value: 2.5–3.2 µg/mL
CC[C@H]1OC(=O)[C@H](C)[C@@H](O[C@H]2C[C@@](C)(OC)[C@@H](O)[C@H](C)O2)[C@H](C)[C@@H](O[C@@H]2O[C@H](C)C[C@H](N(C)C)[C@H]2O)[C@](C)(O)C[C@@H](C)CN(C)[C@H](C)[C@@H](O)[C@]1(C)O ; strain or isolate: T ; read-out: MIC ; value: 8 µg/mL
CO/C(=N\N=C\c1ccc(OC)c(OC)c1)c1ccncc1 ; strain or isolate: 12592 PI ; read-out: MIC ; value: >20 µg/mL
Cc1onc(-c2ccccc2Cl)c1C(=O)N[C@@H]1C(=O)N2[C@@H]1SC(C)(C)[C@@H]2C(=O)O ; strain or isolate: CIPT 140310002 ; read-out: MIC ; value: 10 µg/mL
CO/C(=N\N=C\c1ccccc1)c1ccncc1 ; strain or isolate: 12592 PI ; read-out: MIC ; value: >20 µg/mL
CO[C@H]1/C=C/O[C@@]2(C)Oc3c(C)c(O)c4c(=O)c(c5oc6cc(N7CCN(CC(C)C)CC7)cc(=O)c6nc5c4c3=C2O)NC(=O)/C(C)=C\C=C\[C@H](C)[C@H](O)[C@@H](C)[C@@H](O)[C@@H](C)[C@H](OC(C)=O)[C@@H]1C ; strain or isolate: N-444 ; read-out: MIC ; value: 0.06 µg/mL
CCCCCCCCCCO/N=C1\[C@H](C)CC(C)(O)[C@H](O[C@@H]2O[C@H](C)C[C@H](N(C)C)[C@H]2O)[C@@H](C)[C@H](OC2C[C@@](C)(OC)[C@@H](O)[C@H](C)O2)[C@@H](C)C(=O)O[C@H](CC)[C@@](C)(O)[C@H](O)[C@H]1C ; strain or isolate: 20039 ; read-out: MIC ; value: 12.5 µg/mL
CC[C@H]1OC(=O)[C@H](C)[C@@H](O[C@H]2C[C@@](C)(OC)[C@@H](O)[C@H](C)O2)[C@H](C)[C@@H](O[C@@H]2O[C@H](C)C[C@H](N(C)C)[C@H]2O)[C@](C)(OC)C[C@@H](C)C(=O)[C@H](C)[C@@H](O)[C@]1(C)O ; strain or isolate: Isolate 90-0731 ; read-out: MIC ; value: 2 µg/mL
CC[C@H]1OC(=O)[C@H](C)[C@@H](OC2C[C@@](C)(OC)[C@@H](O)[C@H](C)O2)[C@H](C)[C@@H](O[C@@H]2O[C@H](C)C[C@H](N(C)C)[C@H]2O)C(C)(O)C[C@@H](C)/C(=N\OCCc2ccccc2)[C@H](C)[C@@H](O)[C@]1(C)O ; strain or isolate: 20096 ; read-out: MIC ; value: 25 µg/mL
CO[C@H]1/C=C/O[C@@]2(C)Oc3c(C)c(O)c4c(=O)c(c5oc6cc(N7CCN(C(C)(C)C)CC7)cc(=O)c6nc5c4c3=C2O)NC(=O)/C(C)=C\C=C\[C@H](C)[C@H](O)[C@@H](C)[C@@H](O)[C@@H](C)[C@H](OC(C)=O)[C@@H]1C ; strain or isolate: 31F093T ; read-out: MIC ; value: 0.017 µg/mL
CC(C)N=C(N)/N=C(\N)NOCCCOc1cc(Cl)c(Cl)cc1Cl ; strain or isolate: 1928 ; read-out: MIC ; value: 16 µg/mL
CO[C@H]1/C=C/O[C@@]2(C)Oc3c(C)c(O)c4c(O)c(c5c(c4c3C2=O)NC2(CCN(CC(C)C)CC2)N=5)=NC(=O)/C(C)=C\C=C\[C@H](C)[C@H](O)[C@@H](C)[C@@H](O)[C@@H](C)[C@H](OC(C)=O)[C@@H]1C ; strain or isolate: 211 strains ; read-out: MIC90 ; value: 1.25 µg/mL
CCCCCCCCCCCCCCO/N=C1\[C@H](C)CC(C)(O)[C@H](O[C@@H]2O[C@H](C)C[C@H](N(C)C)[C@H]2O)[C@@H](C)[C@H](OC2C[C@@](C)(OC)[C@@H](O)[C@H](C)O2)[C@@H](C)C(=O)O[C@H](CC)[C@@](C)(O)[C@H](O)[C@H]1C ; strain or isolate: 20096 ; read-out: MIC ; value: >50 µg/mL

Repeating the final 4 entries:

smiles	strain or isolate	read-out	value
CO[C@H]1/C=C/O[C@@]2(C)Oc3c(C)c(O)c4c(=O)c(c5oc6cc(N7CCN(C(C)(C)C)CC7)cc(=O)c6nc5c4c3=C2O)NC(=O)/C(C)=C\C=C\[C@H](C)[C@H](O)[C@@H](C)[C@@H](O)[C@@H](C)[C@H](OC(C)=O)[C@@H]1C	31F093T	MIC	0.017 µg/mL
CC(C)N=C(N)/N=C(\N)NOCCCOc1cc(Cl)c(Cl)cc1Cl	1928	MIC	16 µg/mL
CO[C@H]1/C=C/O[C@@]2(C)Oc3c(C)c(O)c4c(O)c(c5c(c4c3C2=O)NC2(CCN(CC(C)C)CC2)N=5)=NC(=O)/C(C)=C\C=C\[C@H](C)[C@H](O)[C@@H](C)[C@@H](O)[C@@H](C)[C@H](OC(C)=O)[C@@H]1C	211 strains	MIC90	1.25 µg/mL
CCCCCCCCCCCCCCO/N=C1\[C@H](C)CC(C)(O)[C@H](O[C@@H]2O[C@H](C)C[C@H](N(C)C)[C@H]2O)[C@@H](C)[C@H](OC2C[C@@](C)(OC)[C@@H](O)[C@H](C)O2)[C@@H](C)C(=O)O[C@H](CC)[C@@](C)(O)[C@H](O)[C@H]1C	20096	MIC	>50 µg/mL

Two numbers with a dash give a range or band. MIC50, MIC90 and the like: level of inhibition, or share of isolates inhibited.